RC index of single-base changes in HIV-1 Gag

Protein: Gag of HIV-1 NL4-3, numbered from its first residue. Gag is numbered as the whole polyprotein.
Effects on overlapping genes or RNA elements are not listed.

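Seven fragments of pNL4-3 were mutated by error-prone PCR, and each virus pool was passaged in CEM T cells. Sequencing gave the RC index: frequency after two rounds over frequency in the input plasmid.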

RC index: lower means poorer replication; rough cut-offs are 0.1 (lethal) and 0.2 (tolerated).
Each entry names the wild-type residue, its position and the residue put in its place.
The authors read an index above 1 as above wild type (1.9% of all changes in the genome).
Nucleotide positions follow pNL4-3.
Since each clone held several changes (about five per kb), neutral changes can read low.

| substitution | base | region | RC |
|---|---|---|---|
| Q28L | A872T | MA | 0.0840 |
| Y29H | T874C | MA | 0.108 |
| Y29C | A875G | MA | 0.0689 |
| Y29F | A875T | MA | 0.0278 |
| K30R | A878G | MA | 0.0679 |
| L31I | C880A | MA | 0.351 |
| K32E | A883G | MA | 0.0774 |
| K32I | A884T | MA | 0.0603 |
| K32N | A885C | MA | 0.0765 |
| H33N | C886A | MA | 0.213 |
| I34L | A889T | MA | 0.108 |
| I34K | T890A | MA | 0.0618 |
| I34T | T890C | MA | 0.0590 |
| V35E | T893A | MA | 0.0724 |
| V35A | T893C | MA | 0.198 |
| W36R | T895A | MA | 0.0419 |
| W36C | G897T | MA | 0.178 |
| A37P | G898C | MA | 0.0414 |
| A37E | C899A | MA | 0.0862 |
| A37G | C899G | MA | 0.0827 |
| A37V | C899T | MA | 0.399 |
| S38G | A901G | MA | 0.158 |
| S38I | G902T | MA | 0.129 |
| S38R | C903A | MA | 0.0520 |
| R39K | G905A | MA | 0.275 |
| R39M | G905T | MA | 0.0763 |
| E40K | G907A | MA | 0.0790 |
| L41I | C910A | MA | 0.0610 |
| E42Q | G913C | MA | 0.0307 |
| F44I | T919A | MA | 0.0324 |
| F44V | T919G | MA | 0.122 |
| F44S | T920C | MA | 0.0622 |
| F44L | C921A | MA | 0.190 |
| A45T | G922A | MA | 0.173 |
| A45P | G922C | MA | 0.304 |
| A45S | G922T | MA | 0.108 |
| V46D | T926A | MA | 0.0348 |
| V46A | T926C | MA | 0.101 |
| P48T | C931A | MA | 0.938 |
| P48S | C931T | MA | 0.0766 |
| P48H | C932A | MA | 0.0700 |
| P48L | C932T | MA | 0.0702 |
| L50I | C937A | MA | 0.0654 |
| L50H | T938A | MA | 0.0326 |
| L51I | T940A | MA | 0.672 |
| E52G | A944G | MA | 0.168 |
| E52D | G945C | MA | 0.0633 |
| S54L | C950T | MA | 0.251 |
| E55K | G952A | MA | 0.297 |
| E55D | A954C | MA | 0.0455 |
| E55D | A954T | MA | 0.0679 |
| G56S | G955A | MA | 0.261 |
| G56D | G956A | MA | 0.0867 |
| G56V | G956T | MA | 0.146 |
| C57S | T958A | MA | 0.0377 |
| C57G | T958G | MA | 0.0633 |
| R58G | A961G | MA | 0.354 |
| Q59H | A966T | MA | 0.0386 |
| I60L | A967C | MA | 0.0980 |
| I60K | T968A | MA | 0.0132 |
| I60T | T968C | MA | 0.0417 |
| L61Q | T971A | MA | 0.0432 |
| L61R | T971G | MA | 0.0605 |
| G62E | G974A | MA | 0.195 |
| G62A | G974C | MA | 0.148 |
| Q63H | G978T | MA | 0.0638 |
| Q65P | A983C | MA | 0.0688 |
| Q65R | A983G | MA | 0.0690 |
| Q65L | A983T | MA | 0.149 |
| Q65H | A984T | MA | 0.196 |
| P66S | C985T | MA | 0.973 |
| P66R | C986G | MA | 0.0353 |
| S67T | T988A | MA | 0.0394 |
| S67P | T988C | MA | 0.181 |
| L68F | C991T | MA | 0.136 |
| Q69E | C994G | MA | 0.107 |
| Q69R | A995G | MA | 0.567 |
| Q69L | A995T | MA | 0.0525 |
| T70A | A997G | MA | 0.0598 |
| T70S | A997T | MA | 0.0310 |
| T70I | C998T | MA | 0.161 |
| G71R | G1000C | MA | 0.0446 |
| S72A | T1003G | MA | 0.157 |
| S72L | C1004T | MA | 0.215 |
| E73K | G1006A | MA | 0.272 |
| E73V | A1007T | MA | 0.0308 |

The opening 9 entries, copied out:

With Q28L (base A872T, region MA) the assay gave 0.0840.
With Y29H (base T874C, region MA) the assay gave 0.108.
With Y29C (base A875G, region MA) the assay gave 0.0689.
With Y29F (base A875T, region MA) the assay gave 0.0278.
With K30R (base A878G, region MA) the assay gave 0.0679.
With L31I (base C880A, region MA) the assay gave 0.351.
With K32E (base A883G, region MA) the assay gave 0.0774.
With K32I (base A884T, region MA) the assay gave 0.0603.
With K32N (base A885C, region MA) the assay gave 0.0765.

Reference: Al-Mawsawi et al. 2014, doi:10.1186/s12977-014-0124-6.